Laboratory results as given in patent publication US6803374B2, “Compounds useful for treating hepatitis C virus” (priority 2001, dated 2004).

The chains behind the UniProt entries cited, without tags or fusion partners. Residues count along the entry.
UniProt Q9WMX2, 2420-2992 limits assumed: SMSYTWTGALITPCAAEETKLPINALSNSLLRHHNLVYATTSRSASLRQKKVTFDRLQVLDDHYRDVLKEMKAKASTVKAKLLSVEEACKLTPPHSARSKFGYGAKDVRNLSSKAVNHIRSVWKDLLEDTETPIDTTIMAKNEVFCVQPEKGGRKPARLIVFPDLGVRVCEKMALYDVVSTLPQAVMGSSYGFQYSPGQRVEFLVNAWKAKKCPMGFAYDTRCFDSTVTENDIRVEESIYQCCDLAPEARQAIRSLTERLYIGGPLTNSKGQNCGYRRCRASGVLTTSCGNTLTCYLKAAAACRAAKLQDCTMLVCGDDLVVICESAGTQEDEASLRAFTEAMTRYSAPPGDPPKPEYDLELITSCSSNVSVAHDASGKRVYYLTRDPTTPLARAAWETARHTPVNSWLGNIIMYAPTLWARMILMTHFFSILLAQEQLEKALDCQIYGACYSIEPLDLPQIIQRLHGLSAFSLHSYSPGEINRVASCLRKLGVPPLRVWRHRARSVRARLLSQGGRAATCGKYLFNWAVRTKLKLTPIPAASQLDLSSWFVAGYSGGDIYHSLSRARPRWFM

Target: HCV NS5B RdRp genotype 1b (Hepatitis C virus genotype 1b, UniProt Q9WMX2)
Assay: HCV NS5B RdRp enzyme assay
Format: biochemical
Conditions: HCV RdRp genotype 1b enzyme, C-terminal 18 aa truncated; average of single point IC50 values
Protocol: HCV NS5B RdRp cloning, expression and purification. The cDNA encoding the NS5B protein of HCV, genotype 1b, was cloned into the pET21a expression vector. The protein was expressed with an 18 amino acid C-terminal truncation to enhance the solubility. The E. coli competent cell line BL21(DE3) was used for expression of the protein. Cultures were grown at 37° C. for ˜4 hours until the cultures reached an optical density of 2.0 at 600 nm. The cultures were cooled to 20° C. and induced with 1 mM IPTG. Fresh ampicillin was added to a final concentration of 50 ug/ml and the cells were grown overnight at 20° C.
Cell pellets (3L) were lysed for purification to yield 15-24 mgs of purified NS5B. The lysis buffer consisted of 20 mM Tris-HCl, pH 7.4, 500 mM NaCl, 0.5% triton X-100, 1 mM DTT, 1 mM EDTA, 20% glycerol, 0.5 mg/ml lysozyme, 10 mM MgCl2, 15 ug/ml deoxyribonuclease I, and Complete TM protease inhibitor tablets (Roche). After addition of the lysis buffer, frozen cell pellets were resuspended using a tissue homogenizer. To reduce the viscosity of the sample, aliquots of the lysate were sonicated on ice using a microtip attached to a Branson sonicator. The sonicated lysate was centrifuged at 100,000×g for 1 hr at 4° C. and filtered through a 0.2 μm filter unit (Corning). […]
HCV NS5B RdRp enzyme assay. […] Plates were read on a Packard Top Count NXT. […]

**Q.** With O=C(c1ccc(-c2ccc(Cl)cc2)c(COc2ccc(-c3nc4cc(-c5nnn[nH]5)ccc4n3C3CCCCC3)cc2)c1)N1CCC(O)CC1 [Example 48] as the molecule, how does the IC50 read?
**A.** Its IC50 is 0.86 µM.

The match of structure and compound is tentative.
